## Share of PSTVd loop 6 variants by leaf site

Values reported by Wu et al. 2024 (doi:10.1371/journal.ppat.1012142).

The pool varies loop 6 of the PSTVd intermediate strain in the pattern UNNNCGNNNG; wild type is UGACCGCGAG (upper and lower strand joined, each 5' to 3', the first 5 letters being the upper strand, closing pairs included).

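Three N. benthamiana plants were inoculated with the whole mutant pool. Samples came from the inoculated region at 5 days, the leaf margin at 10 and upper systemic leaves at 12.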

Values are reads per thousand in the sample; higher means more abundant, 0 means not found.
Each value is the mean of three plants.
"Pool" is the share in the plasmid pool used as inoculum, on the same scale.
The inoculated region was read from the minus strand, the other sites from the plus strand.

UGCCCGACGG (pool 0.157) gave inoculated region 0.107; leaf margin 0; systemic leaves 0. UUAUCGUACG (pool 0.379) read inoculated region 0.0659; leaf margin 0; systemic leaves 0. UUGACGUUGG (pool 0.327) read inoculated region 0.120; leaf margin 0.0161; systemic leaves 0. For UUACCGUACG (pool 0.209) the result was inoculated region 0.543; leaf margin 0.149; systemic leaves 0. With UUCGCGGUAG (pool 0.235) the assay gave inoculated region 0.0659; leaf margin 0.00920; systemic leaves 0. With UAGGCGUGUG (pool 0.235) the assay gave inoculated region 0.107; leaf margin 0; systemic leaves 0. With UAAACGGCGG (pool 0.118) the assay gave inoculated region 0.143; leaf margin 0.00920; systemic leaves 0. UCCUCGGCGG (pool 0.131) gave inoculated region 0.125; leaf margin 0; systemic leaves 0. UGUUCGUAAG (pool 0.131) read inoculated region 0.0715; leaf margin 0.0184; systemic leaves 0.

With UCAACGCAGG (pool 0.183) the assay gave inoculated region 0.0837; leaf margin 0.00773; systemic leaves 0.0406. For UUCGCGCGGG (pool 0.706) the result was inoculated region 0.161; leaf margin 0.185; systemic leaves 0.00673. UAACCGCGUA (pool 0.0131) read inoculated region 0.631; leaf margin 0.130; systemic leaves 0. For UCCGCGAGUG (pool 0.209) the result was inoculated region 0.0893; leaf margin 0; systemic leaves 0. UAUCCGGAGG (pool 0.196) read inoculated region 0.156; leaf margin 0; systemic leaves 0. With UUCUCGGUAG (pool 0.314) the assay gave inoculated region 0.0480; leaf margin 0; systemic leaves 0. UGGGCGAGUG (pool 0.248) gave inoculated region 0.0588; leaf margin 0.00920; systemic leaves 0. UUACCGAUCG (pool 0.275) gave inoculated region 0.0905; leaf margin 0.00773; systemic leaves 0. UGCACGUUCG (pool 0.275) gave inoculated region 0.0998; leaf margin 0.0460; systemic leaves 0.

UAGGCGCGUG (pool 0.183) read inoculated region 0.124; leaf margin 0.00920; systemic leaves 0. For UUUACGCUAG (pool 0.105) the result was inoculated region 0.0955; leaf margin 0.00920; systemic leaves 0. With UUUGCGUGAG (pool 0.196) the assay gave inoculated region 0.114; leaf margin 0.0169; systemic leaves 0. UAAUCGGGAG (pool 0.144) read inoculated region 0.773; leaf margin 0.101; systemic leaves 0. With UGCUCGCUUG (pool 0.288) the assay gave inoculated region 0.102; leaf margin 0.0155; systemic leaves 0. UGUCCGUGGG (pool 0.183) gave inoculated region 0.0836; leaf margin 0; systemic leaves 0. For UCGGCGGUUG (pool 0.523) the result was inoculated region 0.0960; leaf margin 0.00773; systemic leaves 0.00684. For UCGACGCUUG (pool 0.301) the result was inoculated region 0.126; leaf margin 0.0184; systemic leaves 0. UUCGCGGGCG (pool 0.170) read inoculated region 0.162; leaf margin 0.0169; systemic leaves 0.

With UAUGCGCCUG (pool 0.209) the assay gave inoculated region 0.107; leaf margin 0.00773; systemic leaves 0. For UUCACGUACG (pool 0.288) the result was inoculated region 0.605; leaf margin 0.0867; systemic leaves 0. With UGGGCGGCCG (pool 0.248) the assay gave inoculated region 0.0708; leaf margin 0; systemic leaves 0. With UCAACGCUUG (pool 0.235) the assay gave inoculated region 0.0944; leaf margin 0; systemic leaves 0. For UCGCCGCAGG (pool 0.183) the result was inoculated region 0.0826; leaf margin 0; systemic leaves 0. For UCAGCGAAGG (pool 0.0392) the result was inoculated region 0.0829; leaf margin 0; systemic leaves 0. For UGCCCGACAG (pool 0.235) the result was inoculated region 0.0883; leaf margin 0.00773; systemic leaves 0.0135. For UUAGCGCGCG (pool 0.222) the result was inoculated region 0.0599; leaf margin 0.00773; systemic leaves 0.

For reference, wild type rose from 20.7 per thousand in the pool to 195, 198, 203 (inoculated region), 629, 591, 734 (leaf margin) and 942, 870, 868 (systemic leaves).
Samples held 36,220 to 57,551 reads, so the smallest values rest on one or two reads.
Sequences that differ at fixed positions probably stem from PCR or sequencing errors, and defective variants can be carried along by functional ones.